A mixed list of measured activities; the numbers were collected in NIAID ChemDB.

All rows: growth or infection tests; agent: Mycobacterium tuberculosis

Blank or dashed fields: not listed here. A number after MIC or MFC names an inhibition level or a share of isolates. Lines come from different laboratories, so protocols vary. MIC bound: limit read from a one-dose screen. ECn: concentration that inhibits the pathogen or its effect by n%. Percent inhibition refers to the dose given; in toxicity tests it is the harm to the cells.

smiles | dose | method | strain or isolate | endpoint | result
Cc1c(N2C(=O)CC(=O)N(c3ccc(C(=O)O)c(O)c3)C2=S)c(=O)n(-c2ccccc2)n1C | 12.5 µg/mL | resazurin | H37Rv | inhibition | 88%
NNC(=O)c1ccncc1 |  |  | INH resistant | MIC | 11.37 µM
O=C1c2ccccc2C(=O)N1N=Cc1cccc(O)c1O |  | resazurin | H37Ra | MIC50 | >50 µg/mL
O=C1c2cc(Br)ccc2-n2c1nc1ccncc1c2=O |  |  | H37Rv | MIC | <0.06 µg/mL
Fc1ccc(CNCC2CCCC(CNCc3ccc(F)cc3)C2)cc1 | 20 µM |  | H37Rv | inhibition | 0%
CO/N=C1\C[C@@H](C)O[C@@H](O[C@@H]2[C@@H](C)[C@H](O[C@H]3C[C@@H](C)N(CC(C)(C)O)C[C@H](C)O3)[C@@H](C)C(=O)O[C@H]([C@@H](C)CO[C@@H]3O[C@H](C)[C@@H](O)[C@@H](OC)[C@H]3OC)[C@H](C)[C@@H](OC(=O)CC(C)C)[C@@H](C)C(=O)[C@@](C)(OC(=O)N3CCO[C@@H](C)C3)C[C@@H]2C)[C@@H]1O |  | resazurin | H37Rv | MIC | 0.7 µM
O=C(CSC1=NNC2(C(=O)N1)c1ccccc1-c1ccccc12)NC(=S)Nc1ccccc1 |  | BACTEC | H37Rv | MIC bound | >12.5 µg/mL
CC1N=C(N)NC(c2ccc(F)cc2)=C1C(=O)Nc1ccc(S(=O)(=O)c2ccc(NC(=O)C3=C(c4ccc(F)cc4)NC(N)=NC3C)cc2)cc1 |  |  | INH resistant | MIC | 0.1 µM
CCOC(=O)c1cc(=O)c2cc(CC)c(OCc3ccccc3)cc2o1 |  | BACTEC | H37Rv | MIC | >12.5 µg/mL
CC(=O)Nc1ccc(NC(=O)N/N=C/c2cccc([N+](=O)[O-])c2)cc1 |  |  |  | EC50 | <1.56 µg/mL
NNC(=O)CCn1[nH]c(=O)c(Cl)c(Cl)c1=O |  | BACTEC | H37Rv | MIC bound | >12.5 µg/mL
Cc1ccnc(NS(=O)(=O)c2ccc(N3C(=O)CC(=O)N(c4ccc(C(=O)O)c(O)c4)C3=S)cc2)n1 | 12.5 µg/mL | resazurin | H37Rv | inhibition | 87%
C[C@H]1NCc2cc(-c3ccc4c(=O)c(C(=O)O)cn(C5CC5)c4c3OC(F)F)ccc21 |  |  | 10 strains | MIC50 | 2 µg/mL
CCCCCC/C=C/c1ccc2nc3n(c(=O)c2c1)-c1ccc(Cl)cc1C3=O |  |  | H37Rv | MIC | 1 µg/mL
O=S1(=O)CCCCS1 |  | BACTEC | H37Rv | MIC | ≥12.5 µg/mL
O=C1c2cc(I)ccc2-n2c1nc1c(I)cc(I)cc1c2=O |  |  | H37Rv | MIC | 1 µg/mL
CC(=O)Nc1ccc(NC(=O)N/N=C/c2ccccc2O)cc1 |  |  |  | EC50 | >6.25 µg/mL
Cc1c(NC(=S)Nc2ccc(C(=O)O)c(O)c2)c(=O)n(-c2ccccc2)n1C | 12.5 µg/mL | resazurin | H37Rv | inhibition | 85%
O=C(O)c1ccc(N2C(=O)c3cccc([N+](=O)[O-])c3C2=O)cc1O |  | resazurin | H37Ra | MIC50 | 0.39 µg/mL
O=[N+]([O-])c1ccc(CNCC2CCCC(CNCc3ccc([N+](=O)[O-])cc3)C2)cc1 | 20 µM |  | H37Rv | inhibition | 0%
CC(O)CN1CCN(CC(C)O)CC1 | 12.8 µg/mL | BACTEC | H37Rv | inhibition | 22%
Clc1ccccc1CNCC1CCCC(CNCc2ccccc2Cl)C1 | 20 µM |  | H37Rv | inhibition | 0%
O=C1Nc2ccccc2/C1=N/N=C/c1ccccc1[N+](=O)[O-] |  | resazurin | H37Ra | MIC50 | >50 µg/mL
Cc1ccccc1OC1C(=O)N(c2ccc(Cl)c(F)c2)C1c1ccc(OCC(=O)O)cc1 | 6.25 µg/mL | resazurin | H37Rv | inhibition | 72%
O=C(O)C1=C(C(=O)Nc2cccc3cccnc23)[C@H]2C=C[C@@H]1O2 |  | BACTEC | H37Rv | MIC bound | >12.5 µg/mL
COc1cccc(N=C2/C(=C/c3ccco3)CNC/C2=C\c2ccco2)c1OC |  | agar / visual reading | H37Rv | MIC | 25 µg/mL
CO/N=C1\C[C@@H](C)O[C@@H](O[C@@H]2[C@@H](C)[C@H](O[C@H]3CC(C)N(C4CCC4)C[C@H](C)O3)[C@@H](C)C(=O)O[C@H]([C@@H](C)CO[C@@H]3O[C@H](C)[C@@H](O)[C@@H](OC)[C@H]3OC)[C@H](C)[C@@H](OC(=O)CC(C)C)[C@@H](C)C(=O)[C@@](C)(OC(=O)N3C[C@@H](C)O[C@@H](C)C3)C[C@@H]2C)[C@@H]1O |  | resazurin | H37Rv | MIC | 0.675 µM
O=C(N=Nc1c(O)[nH]c2ccc([N+](=O)[O-])cc12)c1cccc([N+](=O)[O-])c1 |  | resazurin | H37Rv | MIC50 | >50 µg/mL
COc1ccc(C2=C(C(=O)Nc3ccc(S(=O)(=O)c4ccc(NC(=O)C5=C(c6ccc(OC)c(O)c6)NC(N)=NC5C)cc4)cc3)C(C)N=C(N)N2)cc1O |  |  | H37Rv | MIC | 1.94 µM
CC(=O)c1c(O)c(C)c(O)c2c1OC1=CC(=O)C(C(C)=O)C(=O)C12C |  |  | INH-r | MIC | 12.5 µg/mL
C1CCC(CNCCNCC2CCCC2)C1 |  |  | H37Rv | MIC | 8 µg/mL
CN(CCO)c1ccc2c(=O)n3c(nc2c1)C(=O)c1cc(OC(F)(F)F)ccc1-3 |  |  | H37Rv | MIC | 0.13 µg/mL
COCCN1C[C@H](C)O[C@@H](O[C@H]2[C@H](C)[C@@H](O[C@@H]3O[C@H](C)C/C(=N\OC)[C@H]3O)[C@@H](C)C[C@](C)(OC(=O)N3C[C@@H](C)O[C@@H](C)C3)C(=O)[C@H](C)[C@H](OC(=O)CC(C)C)[C@@H](C)[C@@H]([C@@H](C)CO[C@@H]3O[C@H](C)[C@@H](O)[C@@H](OC)[C@H]3OC)OC(=O)[C@@H]2C)C[C@H]1C |  | resazurin | H37Rv | MIC | 0.688 µM
NCCNCC(O)CO | 6.25 µg/mL | resazurin | H37Rv | inhibition | 12%
Cc1ccc(OC2C(=O)N(c3ccc(Cl)c(F)c3)C2c2ccc(OCC(=O)O)cc2)cc1 |  | resazurin | H37Rv | MIC90 | >6.25 µg/mL
C=C[C@]1(C)C=C2C(=O)c3c(NC=O)cccc3C(C)(C)[C@H]2C[C@H]1O |  |  |  | MIC | >100 µM
O=C1CCN=C(NN(O)O)N1 |  | BACTEC | H37Rv | MIC bound | >12.5 µg/mL
Cc1c(Cl)cccc1NC(=O)N/N=C/c1ccc(N(C)C)cc1 |  |  |  | EC50 | >6.25 µg/mL
CC1N=C(N)NC(c2ccccc2)=C1C(=O)Nc1ccc(S(=O)(=O)c2ccc(NC(=O)C3=C(c4ccccc4)NC(N)=NC3C)cc2)cc1 |  |  | H37Rv | MIC | 0.62 µM
CCOC(=O)c1ccc2c(c1)C(=O)c1nc3ncccc3c(=O)n1-2 |  |  | H37Rv | MBC | 4 µg/mL
CO/N=C1\C[C@@H](C)O[C@@H](O[C@@H]2[C@@H](C)[C@H](O[C@H]3C[C@@H](C)N(C)C[C@H](C)O3)[C@@H](C)C(=O)O[C@H]([C@@H](C)CO[C@@H]3O[C@H](C)[C@@H](O)[C@@H](OC)[C@H]3OC)[C@H](C)[C@@H](OC(=O)CC(C)C)[C@@H](C)C(=O)[C@@](C)(OC(=O)N3C[C@H](C)O[C@@H](C)C3)C[C@@H]2C)[C@@H]1O |  | resazurin | H37Rv | MIC | 0.886 µM
CC(=O)Nc1ccc(NC(=O)N/N=C/c2ccccc2[N+](=O)[O-])cc1 |  |  |  | EC50 | <6.25 µg/mL
NNC(=S)NN=C1/C(=C/c2ccco2)CNC/C1=C\c1ccco1 |  | agar / visual reading | H37Rv | MIC | 3.125 µg/mL
O=C(NNC(=S)Nc1ccc(C(=O)O)c(O)c1)c1ccncc1 |  | broth dilution | H37Rv | MIC90 | <12.5 µg/mL
CC1N=C(N)NC(c2c(Cl)cccc2Cl)=C1C(=O)Nc1ccc(S(=O)(=O)c2ccc(NC(=O)C3=C(c4c(Cl)cccc4Cl)NC(N)=NC3C)cc2)cc1 |  |  | INH resistant | MIC | 1.96 µM
CCC[CH2][Sn]1([CH2]CCC)[O]C(=O)CN=C(C)c2ccccc2[O]1 |  |  | H37Rv | MIC | 6.3 µg/mL
O=C(N=Nc1c(O)[nH]c2ccccc12)c1ccc(Cl)cc1 |  | resazurin | H37Rv | MIC50 | >50 µg/mL
COC(=O)C1CC(N)C(O)C1O | 12.5 µg/mL | BACTEC | H37Rv | inhibition | 12%
O=C(O)c1ccc(N2C(=O)C(C(=O)C(F)(F)F)C(=O)N(c3ccc(S(=O)(=O)Nc4ncccn4)cc3)C2=S)cc1O | 12.5 µg/mL | resazurin | H37Rv | inhibition | 95%
Cc1ccc(C(=O)N=Nc2c(O)[nH]c3ccccc23)cc1 |  | resazurin | H37Rv | MIC50 | >50 µg/mL
CO[C@H]1/C=C/O[C@@]2(C)Oc3c(C)c(O)c4c(O)c(c(/C=N/N5CCN(C)CC5)c(O)c4c3C2=O)NC(=O)/C(C)=C\C=C\[C@H](C)[C@H](O)[C@@H](C)[C@@H](O)[C@@H](C)[C@H](OC(C)=O)[C@@H]1C |  |  | ATCC 25177 | MIC | 0.036 µM
O=C(NN1C(=O)c2ccccc2C1=O)c1cc(O)cc(O)c1 |  | resazurin | H37Rv | MIC50 | >50 µg/mL
O=C(Nc1ccc(CCC2=NCCCN2)cc1)c1ccc(C(=O)Nc2ccc(CCC3=NCCCN3)cc2)cc1 |  | BACTEC | H37Rv | MIC bound | ≤12.5 µg/mL
CC1COc2c(N3CCN(C)CC3)c(F)cc3c(=O)c(C(=O)O)cn1c23 |  |  | 10 strains | MIC50 | 2 µg/mL
NNC(=O)c1cccc2ccccc12 | 12.5 µg/mL | BACTEC | H37Rv | inhibition | 10%
COc1cccc2c(=O)n3c(nc12)C(=O)c1cc(I)ccc1-3 |  |  | H37Rv | MBC | 8 µg/mL
CO/N=C1\C[C@@H](C)O[C@@H](O[C@@H]2[C@@H](C)[C@H](O[C@H]3C[C@H](C)N(C4CCC4)C[C@H](C)O3)[C@@H](C)C(=O)O[C@H]([C@@H](C)CO[C@@H]3O[C@H](C)[C@@H](O)[C@@H](OC)[C@H]3OC)[C@H](C)[C@@H](OC(=O)CC(C)C)[C@@H](C)C(=O)[C@@](C)(OC(=O)N3CCO[C@@H](C)C3)C[C@@H]2C)[C@@H]1O |  | resazurin | H37Rv | MIC | 0.809 µM
CC1N=C(N)NC(c2ccc([N+](=O)[O-])cc2)=C1C(=O)Nc1ccc(S(=O)(=O)c2ccc(NC(=O)C3=C(c4ccc([N+](=O)[O-])cc4)NC(N)=NC3C)cc2)cc1 |  |  | H37Rv | MIC | 0.46 µM
CC[C@@H](CO)NCCN[C@@H](CC)CO |  |  | ATCC 25177 | MIC | 3.6 µM
OCC1CCCC1CNCCCCNCC1CCCC1CO |  |  | H37Rv | MIC | >64 µg/mL
O=C1CC(NC(=O)c2ccccc2)C(=O)O1 | 12.5 µg/mL | BACTEC | H37Rv | inhibition | -6%
COc1ccc(N=C2/C(=C/c3ccco3)CNC/C2=C\c2ccco2)cc1 |  | agar / visual reading | H37Rv | MIC | 25 µg/mL
Cc1c(Cl)cccc1NC(=O)N/N=C/c1ccccc1[N+](=O)[O-] |  |  |  | EC50 | >6.25 µg/mL
CC(=O)Oc1c(C)c(OC(C)=O)c2c(c1C(C)=O)OC1=CC(O)=C(C(C)=O)C(=O)C12C |  | BACTEC | H37Rv | MIC bound | >12.5 µg/mL
CCCCCCCCc1ccc2c(c1)C(=O)c1nc3ccncc3c(=O)n1-2 |  |  | 10038 RFLP:W | MIC | ≤0.015 µg/mL
O=C1C=C2C=C[C@@H]3C[C@@]2(O1)[C@H]1CCCCN31 | 12.5 µg/mL | BACTEC | H37Rv | inhibition | -2%
NC(=S)N=C1/C(=C/c2ccco2)CNC/C1=C\c1ccco1 |  | agar / visual reading | H37Rv | MIC | 1.56 µg/mL
CC1N=C(N)NC(c2ccc(Cl)cc2)=C1C(=O)Nc1ccc(S(=O)(=O)c2ccc(NC(=O)C3=C(c4ccc(Cl)cc4)NC(N)=NC3C)cc2)cc1 |  |  | H37Rv | MIC | 0.32 µM
CN(C)C(=O)/N=N/C(=O)N(C)C |  | BACTEC | H37Rv | MIC bound | >12.5 µg/mL
O=C(N=Nc1c(O)[nH]c2ccccc12)c1cccnc1 |  | resazurin | H37Rv | MIC50 | >50 µg/mL
O=C(c1ccccc1)C1(O)Oc2ccccc2C1=O | 12.5 µg/mL | BACTEC | H37Rv | inhibition | 14%
O=C(O)COc1ccc(C2C(c3ccccc3)C(=O)N2c2ccc(Cl)c(F)c2)cc1 |  | resazurin | H37Rv | MIC90 | >6.25 µg/mL
Cc1ccccc1CNCC1CCCC(CNCc2ccccc2C)C1 | 20 µM |  | H37Rv | inhibition | 0%
CNC(=O)C1OCCOCCOC(C(=O)NC)C(C(=O)NC)OCCOCCOC1C(=O)NC |  | BACTEC | H37Rv | MIC bound | >12.5 µg/mL
O=C(O)COc1ccc(C2C(Oc3ccccc3)C(=O)N2c2ccc(Cl)c(F)c2)cc1 | 6.25 µg/mL | resazurin | H37Rv | inhibition | 67%
CON/C=C(C#N)/C=C/C=Nc1ccc(S(=O)(=O)N=C(N)N)cc1 | 12.5 µg/mL | BACTEC | H37Rv | inhibition | 58%
Fc1ccccc1CNCC1CCCC(CNCc2ccccc2F)C1 | 20 µM |  | H37Rv | inhibition | 0%

Repeating the final 6 entries:

smiles | dose | method | strain or isolate | endpoint | result
O=C(O)COc1ccc(C2C(c3ccccc3)C(=O)N2c2ccc(Cl)c(F)c2)cc1 |  | resazurin | H37Rv | MIC90 | >6.25 µg/mL
Cc1ccccc1CNCC1CCCC(CNCc2ccccc2C)C1 | 20 µM |  | H37Rv | inhibition | 0%
CNC(=O)C1OCCOCCOC(C(=O)NC)C(C(=O)NC)OCCOCCOC1C(=O)NC |  | BACTEC | H37Rv | MIC bound | >12.5 µg/mL
O=C(O)COc1ccc(C2C(Oc3ccccc3)C(=O)N2c2ccc(Cl)c(F)c2)cc1 | 6.25 µg/mL | resazurin | H37Rv | inhibition | 67%
CON/C=C(C#N)/C=C/C=Nc1ccc(S(=O)(=O)N=C(N)N)cc1 | 12.5 µg/mL | BACTEC | H37Rv | inhibition | 58%
Fc1ccccc1CNCC1CCCC(CNCc2ccccc2F)C1 | 20 µM |  | H37Rv | inhibition | 0%